These compounds were tested on RBCs (assay: Volatile collection (SPME) and GC-MS analysis of RBC headspace).
Type: cell-based, Human
Method: RBCs (1 ml) were transferred to 4 ml glass vials closed with auto-sampler screw caps, and equilibrated in a thermostat at 38° C. for 15 min. Then, 2.5 μl of HMBPP or Nanopure water were added to the RBCs samples (final concentration: 10 μM HMBPP per sample). Volatiles were collected from the headspace using solid phase micro-extraction (SPME; Supelco, Bellmonte, Pa., USA) (M. J. Yang, el al., J. Chem. Educ., 74, 1130-1132 (1997) and A. K. Borg-Karlson and R. Mozuraitis, Naturforsch., C. 51, 599-602 (1996)). Prior to headspace exposure, the polydimethylsiloxane/divinylbenzene/carboxene-coated SPME fiber (grey) was conditioned for 5 min at 250° C. in a gas chromatograph (GC) injector (6890, Agilent Technologies, Santa Clara, Calif., USA). Volatiles were collected for 30 min (n=5). The volatiles on SPME fiber were then desorbed in the injector (splitless mode, 0.5 min, 225° C.) of a combined Agilent 7890 GC and 5977 mass spectrometer (MS). Helium was used as the carrier gas with a constant flow of 35 cm min^−1. The GC was equipped with a DB-wax coated fused silica capillary column (J&W Scientific, Folsom, Calif., USA; 60 m×0.25 mm i.d., d.f.=0.25 μm). The GC oven temperature was programmed from 30° C. (3 min hold) to 225° C., increasing at 8° C. min^−1, then isothermal for 10 min. Electron ionisation mass spectra were determined at 70 eV with the ion source kept at 230° C. and mass spectra were obtained at mass to charge ratio (m/z) 29-400. Chromatographic profiles of volatiles, which were sampled from RBCs and hRBCs, were compared. The compounds that were more abundant in the hRBC samples were identified according to their retention indices (Retention Index) and mass spectra in comparison with the NIST library (Agilent Technologies) and authentic standards. A similar protocol was used for the quantification of CO2, with the mass spectral data and GC retention times being compared with emission from frozen CO2. The relative amounts of CO2 in arbitrary units were determined from the areas of the respective chromatogram peaks using single ion display mode at m/z 44±0.5 Da. The amounts of identified compounds were quantified by the use of extracted ion chromatograms, since they are very minute. The compounds identified were the only volatiles identified in the SPME samples. The estimations were based on the very same quantifications given in ‘arbitrary area units’. The SPME volatile collections were made under very controlled conditions: the same volume of ‘RBCs’ and the very same temperature, which gives the same % RH in the vials, and under these very same conditions the affinities of the volatiles to the SPME fiber coating are the same.

| SMILES | proportion of compound identified in the headspace for hRBCs, % by weight (of the combined compounds) [% by weight] |
| --- | --- |
| C=C(C)C1CC=C(C)CC1 (stereo not shown) [limonene] | 18 |
| CCCCCCCCC=O [nonanal] | 35 |
| CCCCCCCC=O [octanal] | 23 |
| CCCCCCCCCC=O [decanal] | 12 |

— patent publication US11638424B2, “Mosquito attractant formulations and uses thereof” (priority 2017, dated 2023)
